# Measured values reported in US7968306B2, “Method for measuring activity of a specific fraction of albumin” (Wisconsin Alumni Research Foundation, priority 2002, dated 2011).
# Chains of the proteins cited; added tags and fusions are not shown. Residues count along the entry.
# UniProt P0C216, 29-398 limits assumed: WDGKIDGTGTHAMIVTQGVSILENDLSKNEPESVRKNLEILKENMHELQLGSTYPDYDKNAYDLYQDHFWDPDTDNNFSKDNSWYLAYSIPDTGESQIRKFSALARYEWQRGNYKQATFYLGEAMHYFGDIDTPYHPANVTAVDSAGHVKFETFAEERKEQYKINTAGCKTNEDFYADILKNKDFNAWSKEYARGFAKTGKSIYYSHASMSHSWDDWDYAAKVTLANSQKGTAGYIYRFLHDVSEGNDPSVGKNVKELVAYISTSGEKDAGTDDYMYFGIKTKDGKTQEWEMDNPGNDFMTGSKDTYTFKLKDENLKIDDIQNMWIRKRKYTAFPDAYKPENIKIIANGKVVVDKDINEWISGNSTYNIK
# Target: PLC (Clostridium perfringens) (Clostridium perfringens, UniProt P0C216)
substance,measurement,value
"Protein-I: protein purified from human serum by G100, MonoQ and Vydac C4 columns; identified as albumin (SFA)",effect on PLC activity,little effect on the PLC activity
